A mixed list of measured activities; the numbers were collected in NIAID ChemDB.

Shared fields: whole-cell or culture tests; species: HIV-1

Lines come from different laboratories, so protocols vary. ECn is the concentration giving n% inhibition of infection, replication or growth. An empty or dashed field is not shown.

compound	measure	read by	strain	mutations	cell line	value
Nc1ccn([C@@H]2CS[C@H](CO)O2)c(=O)n1	EC50	single cycle	BaL	-	MAGI	2.6 µg/mL
CN1c2ccccc2C2C1C=C(C#N)C(=O)N2c1ccc([N+](=O)[O-])cc1	EC50	GFP / fluorescence	N119	-	HeLa	0.13 µM
CC(C)CN(C[C@@H](O)[C@H](Cc1ccccc1)NC(=O)O[C@H]1CCOC1)S(=O)(=O)c1ccc(Cl)c(Cl)c1	EC50	p24	IIIB	-	CEM	<0.101 µM
CC1=C(C(=O)Nc2cccc([N+](=O)[O-])c2)C2=NN=C(N)C2C(=O)N1	EC50	MTT	IIIB	-	MT-4	101 µg/mL
CSCSc1nc(C(C)c2c(F)cccc2F)cc(=O)[nH]1	EC50	cytopathic effect / MTT	IIIB	RT-Y181C	MT-4	29 µM
O=C(O)c1cn(-c2cccc(N3CCOCC3)c2)c2nc(N3CCN(c4ccccn4)CC3)c(F)cc2c1=O	EC50	syncytia	-	-	PBL	1 µM
Nc1ncnc2c1ncn2[C@@H]1O[C@H]2CO[C@@H]1[C@H]2OCP(=O)(O)O	EC50	cytopathic effect / XTT	IIIB	-	MT-2	>200 µM
CC(C)(C)OC(=O)c1cccc(Cn2ccc3ccc(-c4ccc5ccn(Cc6cccc(C(=O)O)c6)c5c4)cc32)c1	EC50	entry / luminescence	IIIB	-	MAGI-CCR5	0.2 µM
O=C(O)c1cn(-c2cccc(N3CCOCC3)c2)c2c(Cl)c(N3CCN(c4ccccc4)CC3)c(F)cc2c1=O	EC50	syncytia	-	-	PBL	0.45 µM
Cc1cccc(S(=O)(=O)c2c(C(N)=O)[nH]c3ccc(Cl)cc23)c1	EC50	cytopathic effect / MTT	Efavirenz-resistant (RT K103R V179D P225H)	RT-K103R V179D P225H	C8166	<0.26 µM
COc1nc(N(C)C)nc(C(C#N)c2c(F)cccc2F)c1C	EC50	MTT	IIIB	Y181C	MT-4	>10 µM
Cc1cc(C#N)cc(C)c1Oc1ccnc(S(=O)(=O)CC(=O)Nc2ccc(C#N)cc2)n1	EC50	MTT	IIIB	Y188L	MT-4	0.031 µM
CN(C)c1ccc(/C=N/NC(=O)Cn2nc(-c3ccccc3)c3c2-c2ccccc2S(=O)(=O)N3C)cc1	EC90	RT activity	LAV-1	-	PBMC	>100 µM
Cc1cc(-c2ccc(C#N)cc2)cc(C)c1Oc1ccnc(S(=O)(=O)CC(=O)Nc2ccc(Cl)cc2)n1	EC50	MTT	IIIB	E138K	MT-4	0.197 µM
CC(C)CN(C[C@@H](O)[C@H](Cc1ccccc1)NC(=O)O[C@@H]1CCOC1)S(=O)(=O)c1cccc(S(N)(=O)=O)c1	EC50	p24	IIIB	-	CEM	<0.101 µM
C=CCOCn1c(Cc2cccc(F)c2)c(CC)c(=O)[nH]c1=O	EC50	MTT	EFV-resistant (K103R V179D P225H)	-	MT-4	60 µM
COc1cccc(CN(C)c2cccc(-c3ccc4ccn(Cc5cccc(C(=O)O)c5)c4c3)c2)c1	EC50	entry / luminescence	IIIB	-	MAGI-CCR5	1.6 µM
Cc1cc(/C=C/C#N)cc(C)c1Oc1ccnc(S(=O)(=O)CC(=O)Nc2ccc(Cl)cc2)n1	EC50	MTT	IIIB	E138K	MT-4	0.015 µM
CCOCn1c(Cc2cc(F)ccc2F)c(CC)c(=O)[nH]c1=O	EC50	MTT	N119 (Y181C)	-	MT-4	11 µM
O=C(O)CCN(CCN(CC(=O)O)Cc1cnc2c(O)cccc2c1)CC(=O)O	EC50	RT activity	B-92US026 Primary isolate	-	PBMC	15 µM
CCc1c(Cc2cccc3ccccc23)nc(SCC(=O)c2ccc(OC)cc2)[nH]c1=O	EC50	syncytia	IIIB	-	C8166	0.427 µM
CC1=C(C(=O)Nc2ccccc2)C2=NN=C(N)C2C(=O)N1	EC50	MTT	IIIB	-	MT-4	94.7 µg/mL
Cc1cc(-c2ccc(C#N)cc2)cc(C)c1Oc1ccnc(S(=O)(=O)CC(=O)Nc2ccc(Br)cc2)n1	EC50	MTT	IIIB	K103N	MT-4	0.03 µM
Cc1cn([C@H]2C[C@H](N=[N+]=[N-])[C@@H](CO)O2)c(=O)[nH]c1=O	EC50	MTT	IIIB	RES056	MT-4	0.035 µM
COc1ccccc1NC(=O)C1=C(C)NC(=O)C2C(N)=NN=C12	EC50	MTT	IIIB	-	MT-4	100 µg/mL
COC(=O)N[C@@H](Cc1ccccc1)[C@H](O)CN(CC(C)C)S(=O)(=O)c1ccc(F)cc1	EC50	p24	IIIB	-	CEM	<1.001 µM
Cc1cc(-c2ccc(C#N)cc2)cc(C)c1Oc1ccnc(S(=O)(=O)C(C)C(=O)Nc2ccc(C#N)cc2)n1	EC50	MTT	RES056	-	MT-4	1.433 µM
CCC(=O)c1ccc(F)c([C@@H]2C[C@@H]2NC(=O)Nc2ccc(C#N)cn2)c1O	EC50	β-galactosidase / luminescence	LAI	NNRTI-resistant (RT M230L)	TZM-bl	0.0153 µM
CCOCn1c(Cc2cc(C)cc(C)c2)c(C(C)C)c(=O)[nH]c1=O	EC50	MTT	A17	K103N + Y181C	MT-4	0.3 µM
CN(C)c1nc(Cl)cc(C(C#N)c2c(F)cccc2F)n1	EC50	MTT	IIIB	Y181C	MT-4	>80 µM
CC(=O)Nc1ccc(/C=N/NC(=O)Cn2nc(-c3ccccc3)c3c2-c2ccccc2S(=O)(=O)N3C)cc1	EC50	RT activity	LAV-1	-	PBMC	>100 µM
[N-]=[N+]=N[C@H]1[C@@H](OCP(=O)(O)O)CO[C@H]1n1cnc2c(N)ncnc21	EC50	cytopathic effect / XTT	IIIB	-	MT-2	>200 µM
COc1ccc(/C=N/NC(=O)Cn2nc(-c3ccccc3)c3c2-c2ccccc2S(=O)(=O)N3C)c(OC)c1	EC90	RT activity	LAV-1	-	PBMC	>100 µM
COc1ccccc1N1CCN(c2c(F)cc3c(=O)c(C(=O)O)cn(-c4cccc(N5CCOCC5)c4)c3c2Cl)CC1	EC50	syncytia	-	-	PBL	0.7 µM
CC(C)CN(C[C@@H](O)[C@H](Cc1ccccc1)NC(=O)OC(C)(C)C)S(=O)(=O)c1ccc(F)cc1F	EC50	p24	IIIB	-	CEM	<1.001 µM
COc1cc(/C=N/NC(=O)Cn2nc(-c3ccccc3)c3c2-c2ccccc2S(=O)(=O)N3C)cc(OC)c1OC	EC90	RT activity	LAV-1	-	PBMC	>100 µM
COc1nc(N(C)C)nc(C(=O)c2c(F)cccc2F)c1C	EC50	MTT	IIIB	-	MT-4	>20 µM
Cc1cc(-c2ccc(C#N)cc2)cc(C)c1Oc1ccnc(S(=O)(=O)C(C)C(=O)Nc2ccc(Cl)cc2)n1	EC50	MTT	IIIB	Y181C	MT-4	0.146 µM
CCCCCCCCCCCCCC(=O)N[C@@H](CS)C(=O)N[C@@H](C)C(=O)N[C@H](C(=O)N[C@@H](C)C(=O)N[C@@H](Cc1ccc(O)cc1)C(=O)N[C@@H](Cc1c[n+](C)cn1C)C(=O)OC)C(C)C	EC50	cytopathic effect / XTT	-	-	CEM + CEM-SS	<12.5 µg/mL
Cc1c(Cc2cccc3ccccc23)nc(SCCc2ccccc2)[nH]c1=O	EC50	syncytia	IIIB	-	C8166	5.4 µM
Cc1cc(-c2ccc(C#N)cc2)cc(C)c1Oc1ccnc(S(=O)(=O)CC(=O)NCCc2ccc(Cl)cc2)n1	EC50	MTT	IIIB	-	MT-4	>8.27 µM
CCc1c(Cc2cccc3ccccc23)nc(SCC(=O)c2ccccc2)[nH]c1=O	EC50	syncytia	IIIB	-	C8166	0.579 µM
CC(C)CN(C[C@@H](O)[C@H](Cc1ccccc1)NC(=O)O[C@H]1CCOC1)S(=O)(=O)N1CCCCC1	EC50	p24	IIIB	-	CEM	<0.101 µM
Cc1ccc(S(=O)(=O)c2c(C(N)=O)[nH]c3ccc(Cl)cc23)c(C)c1	EC50	cytopathic effect / MTT	A17	RT-K103N Y181C	MT-4	10 µM
O=C1Nc2ccc(Cl)cc2[C@@](C#CC2CC2)(C(F)(F)F)N1	EC90	-	-	RT-K101E	-	<0.012 µM
Cc1c(C(=O)c2c(F)cccc2F)nc(N(C)C)[nH]c1=O	EC50	MTT	IIIB	K103N + Y181C	MT-4	>100 µM
CN1c2c(-c3ccccc3)nn(CC(=O)N/N=C/c3cccc(Br)c3)c2-c2ccccc2S1(=O)=O	EC90	RT activity	LAV-1	-	PBMC	>100 µM
O=C1Nc2ccc(F)c(F)c2[C@@](C#CC2CC2)(C(F)(F)F)N1	EC90	-	-	RT-V108I	-	<0.012 µM
COc1nc(N(C)C)nc(Cc2c(F)cccc2F)c1C	EC50	MTT	IIIB	-	MT-4	>67 µM
CC1CC(C)CN(S(=O)(=O)c2ccccc2[N+](=O)[O-])C1	EC50	GFP / fluorescence	D-92UG046	-	HeLa	1.47 µM
COc1ccc(S(=O)(=O)N(CC2CCCC2)C[C@@H](O)[C@H](Cc2ccccc2)NC(=O)O[C@@H]2CCOC2)cc1	EC50	p24	IIIB	-	CEM	<0.1 µM
Cc1cc(-c2ccc(C#N)cc2)cc(C)c1Oc1ccnc(S(=O)(=O)CC(=O)Nc2ccc(F)cc2)n1	EC50	MTT	IIIB	Y181C	MT-4	0.528 µM
Cc1c(Cc2cccc3ccccc23)nc(SCC(=O)c2cccs2)[nH]c1=O	EC50	syncytia	IIIB	-	C8166	1.92 µM
CN1c2c(-c3ccccc3)nn(CC(=O)N/N=C/c3ccc(Cl)cc3Cl)c2-c2ccccc2S1(=O)=O	EC90	RT activity	LAV-1	-	PBMC	>100 µM
C=CCOCn1c(Cc2cc(C(F)(F)F)cc(C(F)(F)F)c2)c(CC)c(=O)[nH]c1=O	EC50	MTT	N119 (Y181C)	-	MT-4	>100 µM
NC(=O)c1[nH]c2ccc(Cl)cc2c1S(=O)(=O)c1ccccc1	EC50	cytopathic effect / MTT	Efavirenz-resistant (RT K103R V179D P225H)	RT-K103R V179D P225H	C8166	<0.9 µM
Cc1c(Cc2cccc3ccccc23)nc(SCC(=O)c2ccco2)[nH]c1=O	EC50	syncytia	IIIB	-	C8166	1.82 µM
CSCSc1nc(Cc2c(F)cccc2F)cc(=O)[nH]1	EC50	cytopathic effect / MTT	IIIB	RT-Y181C	MT-4	54 µM

4 of the rows above, restated:

compound | measure | read by | strain | mutations | cell line | value
CCOCn1c(Cc2cc(F)ccc2F)c(CC)c(=O)[nH]c1=O | EC50 | MTT | N119 (Y181C) | - | MT-4 | 11 µM
Cc1cc(-c2ccc(C#N)cc2)cc(C)c1Oc1ccnc(S(=O)(=O)C(C)C(=O)Nc2ccc(Cl)cc2)n1 | EC50 | MTT | IIIB | Y181C | MT-4 | 0.146 µM
CC1=C(C(=O)Nc2cccc([N+](=O)[O-])c2)C2=NN=C(N)C2C(=O)N1 | EC50 | MTT | IIIB | - | MT-4 | 101 µg/mL
COc1cc(/C=N/NC(=O)Cn2nc(-c3ccccc3)c3c2-c2ccccc2S(=O)(=O)N3C)cc(OC)c1OC | EC90 | RT activity | LAV-1 | - | PBMC | >100 µM